From US20150158934A1 come the findings set out here.

The assay addresses gp120IIIB (subgroup B) (HIV-1) (UniProt P04578). The experiment in a line: SPR.

As usually defined, the Kd is the free concentration of one partner at which half of the binding sites on the other are occupied at equilibrium, for simple one-to-one binding. Low readings indicate tighter binding, high ones weaker binding. For orientation: koff means the first-order rate constant of dissociation. By kon is commonly meant the rate constant with which the complex forms. A low value points to slow association.

The substance “sCD4 4-D (from UniProt P01730 26-390) (receptor; other documents disagree on this pair)” returned a Kd of 860 pM, a koff of 0.000112 s⁻¹ and a kon of 130000 M⁻¹ s⁻¹.
